Results of unrelated studies side by side (data: NIAID ChemDB).

All rows: growth or infection tests; agent: HIV-1

ECn: concentration that inhibits the pathogen or its effect by n%. Fold resistance: result on the changed form divided by that on wild type. Conditions beyond the fields shown may differ between rows. Inhibition is in % at the dose shown (toxicity tests: loss of growth or viability). Blank or dashed fields: not listed here. a–b is a range or a potency band.

compound,strain or isolate,changes,measure,tested at,read by,cells,result
CC(C)C1=C2[C@H]3CC[C@@H]4[C@@]5(C)CC[C@H](OC(=O)[C@H]6C[C@@H](C(=O)O)C6(C)C)C(C)(C)[C@@H]5CC[C@@]4(C)[C@]3(C)CC[C@@]2([C@@H](O)CNC(=O)[C@@H](C)NC(=O)c2ccc(Cl)cc2)CC1=O,92HT599,-,EC50,-,p24 / ELISA,MT-2,<1 µM
CC1(C)c2nc(C(=O)NCc3ccc(F)cc3)c(O)c(=O)n2CCN1CC(=O)N1CCCC1,-,-,EC95,-,p24,MT-4,<1 µM
O=C(COc1ccc(Cl)cc1C(=O)c1ccco1)Nc1ccc2cn[nH]c2c1,HXB2 (RT-K103N Y181C) Recombinant,RT-K103N Y181C,fold resistance,-,β-galactosidase,HeLa + HELA CD4+,~100
CC(C)C1=C2[C@H]3CC[C@@H]4[C@@]5(C)CC[C@H](OC(=O)[C@H]6C[C@@H](C(=O)O)C6(C)C)C(C)(C)[C@@H]5CC[C@@]4(C)[C@]3(C)CC[C@@]2(CC(=O)N[C@H](CO)CNC(=O)c2ccc(Cl)cc2)CC1=O,92HT599,-,EC50,-,p24 / ELISA,MT-2,<1 µM
COc1ccc(S(=O)(=O)N(CCC(O)CN(CC(C)C)S(=O)(=O)c2ccccc2)CC2CCCC2)cc1,IIIB,-,EC90,-,p24,CEM,1 µM
O=C1[C@@H](Cc2ccccc2)NC(=S)N1Cc1ccccc1,-,-,inhibition,10 µg/mL,RT activity,MT-4,9%
CC(C)=CCOc1cc(NC(=S)c2ccoc2C)ccc1Cl,Pyridinone-resistant (RT Y181C K103N),RT-K103N Y181C,fold resistance,-,cytopathic effect / XTT,CEM + CEM-SS,>200
CC(C)[C@H](NC(=O)OCc1ccccn1)C(=O)N[C@@H](Cc1ccccc1)[C@@H](O)C[C@H](Cc1ccccc1)NC(=O)OCc1cccnc1,NL4-3,PR-L10R M46I,EC95,-,p24,MT-4,0.8 µM
COc1ccc(OC)c2c(C(=O)C(=O)N3CCN(C(=O)c4ccc(Br)o4)C[C@H]3C)c[nH]c12,-,-,inhibition,10 µM,luciferase,HeLa + HELA CD4+/CCR5,>98%
Cc1ccc(-c2ccc3c(c2)C=C(C(=O)Nc2ccc(C[N+](C)(C)C4CCOCC4)cc2)CCC3)cc1,COT1 CLADE C,-,inhibition,1 µM,p24,PBMC,100%
CCc1cc(C#N)cc(C(=O)c2cc(Cl)ccc2OCC(=O)Nc2ccc(S(N)(=O)=O)cc2C)c1,HXB2,RT-K103N V108I,fold resistance,-,β-galactosidase,HeLa + HELA CD4+,~1
COc1cccc2[nH]cc(C(=O)C(=O)N3CCN(C(=O)c4ccccc4)CC3)c12,-,-,inhibition,10 µM,luciferase,HeLa + HELA CD4+/CCR5,>98%
Cc1cn([C@H]2C=C[C@@H](CO)O2)c(=O)[nH]c1=O,XM-Q151M,RT-A62V V75I F77C F116Y Q151M,EC90,-,p24,MT-4,22 µM
CC(C)CN(C[C@@H](O)[C@@H]1CCCCCCCCOc2c(O)cccc2C(=O)N1)S(=O)(=O)c1ccc2c(c1)OCO2,LAI,-,EC75,-,cytopathic effect / MTT,MT-2,>1 µM
O=C(C(=O)N1CCN(C(=O)c2ccccc2)CC1)c1c[nH]c2c(F)ccc(F)c12,-,-,inhibition,10 µM,luciferase,HeLa + HELA CD4+/CCR5,>98%
Cc1cc2[nH]cnc2cc1NC(=O)COc1ccc(Cl)cc1C(=O)c1cc(F)cc(C(F)(F)F)c1,Nevirapine-resistant (RT Y181C),RT-Y181C,EC50,-,cytopathic effect / propidium iodide,MT-4,<0.01 µM
CC(C)CN(CC(O)CN(CC(C)C)S(=O)(=O)c1ccc(O)cc1)S(=O)(=O)c1ccccc1,IIIB,-,EC90,-,p24,CEM,1 µM
Cc1ccnc(NC(=O)NCCc2ccccc2)n1,-,-,inhibition,1 µg/mL,cytopathic effect / XTT,MT-4,42%
O=C1Nc2ccc(Cl)cc2[C@@](C#CC2CC2)(C(F)(F)F)N1,-,RT-K101E,EC90,-,-,-,<0.012 µM
Cc1ccc(F)c2c(C(=O)C(=O)N3CCN(C(=O)c4ccccc4)CC3)c[nH]c12,-,-,inhibition,10 µM,luciferase,HeLa + HELA CD4+/CCR5,>98%
COc1ccc(S(=O)(=O)N(CC(C)C)C[C@@H](O)CCN(CC2CCCC2)S(=O)(=O)c2nc3ccccc3[nH]2)cc1,IIIB,-,EC90,-,p24,CEM,1 µM
CCC(=O)c1ccc(F)c([C@@H]2C[C@@H]2NC(=O)Nc2ccc(C#N)cn2)c1O,LAI,NNRTI-resistant (RT Y181C/G190A),fold resistance,-,β-galactosidase / luminescence,TZM-bl,1.9
COc1ccc(CCNC(=S)Nc2nccs2)cc1OC,-,-,inhibition,100 µg/mL,cytopathic effect / XTT,MT-4,0%
Nc1nc(=O)n([C@H]2C=C[C@@H](CO)O2)cc1F,NL4-3 WT,-,EC90,-,p24,MT-4,1.2 µM
Cc1nnc(C(=O)N(C)C2CN(C)CCn3c2nc(C(=O)NCc2ccc(F)cc2)c(O)c3=O)o1,-,-,EC95,-,p24,MT-4,<1 µM
Cc1cc(S(N)(=O)=O)ccc1NC(=O)COc1ccc(Cl)cc1C(=O)c1cccc(C#N)c1,HXB2 (RT-K103N Y181C) Recombinant,RT-K103N Y181C,fold resistance,-,β-galactosidase,HeLa + HELA CD4+,~10
O=C1Nc2ccc(F)c(F)c2[C@@](/C=C/C2CC2)(C(F)(F)F)N1,-,RT-P225H,EC90,-,-,-,<0.012 µM
C[C@H]1[C@H](O)[C@@H](C)/C=C/C=C/C=C/C=C/C=C/C=C/C=C/[C@H](O[C@@H]2O[C@H](C)[C@@H](O)[C@H](N)[C@@H]2O)C[C@@H]2O[C@](O)(C[C@@H](O)C[C@@H](O)CC[C@H](O)[C@@H](O)C[C@@H](O)CC(=O)O[C@H]1C)C[C@H](O)[C@H]2C(=O)O,YBF30 GROUP N R5 (NSI),-,inhibition,1.4 µM,p24 / RT activity,PBMC,90%
O=C(NCCc1ccccc1)Nc1nc(C(F)(F)F)cs1,-,-,inhibition,1 µg/mL,cytopathic effect / XTT,MT-4,75–100%
Cn1nccc1CN1CCn2c(nc(C(=O)NCc3ccc(F)cc3)c(O)c2=O)C1(C)C,-,-,EC95,-,p24,MT-4,<1 µM
CC(C)C1=C2[C@H]3CC[C@@H]4[C@@]5(C)CC[C@H](OC(=O)[C@H]6C[C@@H](C(=O)O)C6(C)C)C(C)(C)[C@@H]5CC[C@@]4(C)[C@]3(C)CC[C@@]2(CCNC(=O)c2cnn3cccnc23)CC1=O,92HT599,-,EC50,-,p24 / ELISA,MT-2,<1 µM
N#Cc1cc(Cl)cc(Oc2c(Br)ccc(CC(=O)Nc3ccc(S(N)(=O)=O)cc3Cl)c2F)c1,-,G190A,fold resistance,-,-,MT-4,<1
Cc1cc(C#N)cc(C(=O)c2cc(Cl)ccc2OCC(=O)Nc2cnc(S(N)(=O)=O)cc2C)c1,HXB2,RT-V108I Y181C,fold resistance,-,β-galactosidase,HeLa + HELA CD4+,~1
CC(C)=CCOc1cc(NC(=S)c2ccsc2C)ccc1Cl,NL4-3 (RT M184V),RT-M184V,fold resistance,-,cytopathic effect / XTT,CEM + CEM-SS,1.67
Cc1nc2ccc(C(=O)NC(C)(C)CNC(=O)C[C@@]34CC[C@]5(C)[C@H](CC[C@@H]6[C@@]7(C)CC[C@H](OC(=O)[C@H]8C[C@@H](C(=O)O)C8(C)C)C(C)(C)[C@@H]7CC[C@]65C)C3=C(C(C)C)C(=O)C4)cc2[nH]1,92HT599,-,EC50,-,p24 / ELISA,MT-2,<1 µM
Cc1cc(S(N)(=O)=O)ccc1NC(=O)COc1ccc(Cl)cc1C(=O)c1cc(F)cc(C#N)c1,HXB2 (RT-K103N Y181C) Recombinant,RT-K103N Y181C,fold resistance,-,β-galactosidase,HeLa + HELA CD4+,~1
CN1CCn2c(nc(C(=O)NCc3ccc(F)cc3)c(O)c2=O)C1(C)C,-,-,EC95,-,p24,MT-4,<1 µM
CC(C)C1=C2[C@H]3CC[C@@H]4[C@@]5(C)CC[C@H](OC(=O)[C@H]6C[C@@H](C(=O)O)C6(C)C)C(C)(C)[C@@H]5CC[C@@]4(C)[C@]3(C)CC[C@@]2([C@@H](O)CNCC(C)(C)NC(=O)c2ccncn2)CC1=O,92HT599,-,EC50,-,p24 / ELISA,MT-2,<1 µM
CC1(C)c2nc(C(=O)NCc3ccc(F)cc3)c(O)c(=O)n2CCN1Cc1nnco1,-,-,EC95,-,p24,MT-4,<1 µM
Cc1cc2cn[nH]c2cc1NC(=O)COc1ccc(Cl)cc1C(=O)c1cccc(C#N)c1,HXB2,RT-P225H,fold resistance,-,β-galactosidase,HeLa + HELA CD4+,~1
COc1ccc(Cl)c2[nH]cc(C(=O)C(=O)N3CCN(C(=O)c4ccc(N)cc4)C[C@H]3C)c12,-,-,inhibition,10 µM,luciferase,HeLa + HELA CD4+/CCR5,>98%
CC(C)C1=C2[C@H]3CC[C@@H]4[C@@]5(C)CC[C@H](OC(=O)[C@H]6C[C@@H](C(=O)O)C6(C)C)C(C)(C)[C@@H]5CC[C@@]4(C)[C@]3(C)CC[C@@]2(CC(=O)NCc2ccc(Cl)cc2OCCN2CCCC2)CC1=O,92HT599,-,EC50,-,p24 / ELISA,MT-2,<1 µM
Nc1ccc(C(=O)N2CCN(C(=O)C(=O)c3c[nH]c4cccc(Cl)c34)CC2)cc1,-,-,inhibition,10 µM,luciferase,HeLa + HELA CD4+/CCR5,98%
O=C(NCCc1ccccc1)Nc1nc2ccc(Cl)cc2s1,-,-,inhibition,10 µg/mL,RT activity,MT-4,51%
C[C@@H]1CN(C(=O)c2ccccc2)CCN1C(=O)C(=O)c1c[nH]c2cccc(Cl)c12,-,-,inhibition,10 µM,luciferase,HeLa + HELA CD4+/CCR5,77%
Cc1nc(C)c(C(=O)NC(C)(C)CNC[C@H](O)[C@@]23CC[C@]4(C)[C@H](CC[C@@H]5[C@@]6(C)CC[C@H](OC(=O)[C@H]7C[C@@H](C(=O)O)C7(C)C)C(C)(C)[C@@H]6CC[C@]54C)C2=C(C(C)C)C(=O)C3)s1,92HT599,-,EC50,-,p24 / ELISA,MT-2,<1 µM
C[C@@H]1CN(C(=O)c2ccccc2)CCN1C(=O)C(=O)c1c[nH]c2c(C(=O)O)cccc12,-,-,inhibition,10 µM,luciferase,HeLa + HELA CD4+/CCR5,>98%
O=C1NC(=S)N[C@@H]1Cc1ccc(O)cc1,-,-,inhibition,10 µg/mL,cytopathic effect / XTT,MT-4,0%
COc1ccc(S(=O)(=O)N(CC[C@@H](O)CN(CC(C)C)S(=O)(=O)c2ccc(OC)cc2)CC(C)C)cc1,IIIB,-,EC90,-,p24,CEM,1 µM
C/C=C/CSc1cc(NC(=S)c2ccsc2C)ccc1Cl,NL4-3,RT-V179D,fold resistance,-,p24,CEM + CEM-SS,9